Tested on: CD8+ T lymphocytes of PBMC
Assay: In vitro stimulation of human PBMC with peptide and rIL-2, then tetramer reagent labeling and flow analysis
Details: healthy HLA-A2 volunteers, summary of Table IV

ILMWEAVTL [JC100]
individuals positive for staining with the JC100 tetramer reagent after in vitro stimulation: 6 of 20

— US7468186B2, “Polyomavirus cellular epitopes and uses therefor” (priority 2005, dated 2008)
